This passage reports Kd, koff and kon results from patent publication US20240059741A1, “COMPOSITION FOR PREVENTION OR TREATMENT OF SARS-COV-2 INFECTION” (priority 2020, published 2024).

Where two headings read alike, the source gives them in different places.

In test [1] the target is T1, SARS-CoV-2 S1 protein-His Tag (AcroBiosystems, S1N-C52H3-100UG) (SARS-CoV-2), P0DTC2.
The target of test [2] is T1, SARS-CoV-2 S1 protein-His Tag …. This is another data set of the same source.
Test [3] has the same target. The source holds these as a separate data set.

For the molecule IEEQAKTFLDKFNHEAEDLFYQSSLASGPGCLGKGDCRIL [CSNP1], in test [1], the Kd was 300 nM. In test [2], the Kd is 311 nM, the off-rate (koff) was 0.000188 s⁻¹ and the kon came to 603 M⁻¹ s⁻¹.
Take LQAANFLDKDNDEKEDLFYKSSLASPGGCLGKGDCRIL [CSNP2]: in test [3], the Kd was 31800 nM and the off-rate constant (koff) was 0.000498 s⁻¹.
